Pooled drug test results. Numbers come from NIAID ChemDB, via PubChem.

Shared fields: growth or infection tests; species: Candida albicans

Neighbouring rows are from separate reports. Two numbers with a dash give a range or band. Blank or dashed fields: not listed here. MIC50, MIC90 and the like: level of inhibition, or share of isolates inhibited.

compound,method,strain,read-out,result
Cc1c(/C(=N/OCc2ccccc2)c2ccccc2)oc2ccccc12,-,-,MIC,>512 µg/mL
CN1C(=O)CSc2ccc(C(Cn3ccnc3)OCc3ccc(Cl)cc3)cc21,-,CA6,MIC,<0.18 µg/mL
CCOC(=O)c1csc(C(C)NC(=O)OC(C)(C)C)n1,-,7 isolates,MIC,420 µM
CN=C(NC)SCCN(CCSC(=NC)NC)CCSC(=NC)NC,-,ATCC 18804,MIC,250 µg/mL
COc1cc(O)c2c(c1)C(=O)c1c(cc3c(c1O)-c1c(cc(C)c(C(=O)NC(C)C(=O)O)c1O)[C@H](OC1OC(C)C(N(C)C(=O)C(CO)(CO)CO)C(OC4OCC(O)C(O)C4O)C1O)[C@H]3O)C2=O,-,A9540,MIC,>100 µg/mL
C=CC(C)(C)c1c2c(c(OC)c3ccc(=O)oc13)C=CC(C)(C)O2,-,-,MIC50,>50 µg/mL
CC(N)c1nc(C(=O)NN)cs1,-,7 isolates,MIC,200–400 µM
O=C1/C(=C/c2ccc(Cl)cc2)COc2ccccc21,-,-,MIC,25 µg/mL
C[C@@H]1Oc2ccccc2/C(=N/OCc2ccc(Cl)cc2)[C@H]1n1cncn1,-,ATCC 10231,MIC,8 µg/mL
CC(=O)O/N=C(\c1ccccc1)c1oc2ccccc2c1C,-,-,MIC,8 µg/mL
Clc1ccc(COC(Cn2ccnc2)c2ccc(Cl)cc2Cl)c(Cl)c1,-,ATCC 10231,MIC,0.5 µg/mL
CCOC(=O)[C@H](Cc1nccs1)NC(=O)CNC(=O)CN,-,7 isolates,MIC,>1000 µM
CSc1ncc([N+](=O)[O-])n1C,-,-,MIC,>200 µg/mL
C=CCN(CC=C)C(C)C(O)(Cn1cncn1)c1ccc(F)cc1F,-,KC-03,MIC,<0.025 µg/mL
COc1ccc(/C(=N/O)c2oc3ccccc3c2C)cc1,-,-,MIC,4 µg/mL
C[C@@H]1Oc2ccccc2/C(=N/OCc2ccc(Cl)cc2)[C@H]1n1ccnc1,-,ATCC 10231,MFC,16 µg/mL
CC(C)C[C@@H]1NC(=O)[C@H](C(C)C)NC1=O,broth dilution,MTCC 277,MIC100,32 µg/mL
COc1cc(O)c2c(c1)C(=O)c1c(cc3c(c1O)-c1c(cc(C)c(C(=O)NC(C)C(=O)O)c1O)[C@H](OC1OC(C)C(N(C)C=O)C(OC4OCC(O)C(O)C4O)C1O)[C@H]3O)C2=O,-,A9540,MIC,3.1 µg/mL
Cc1cc2c(cc1Cl)ncn2-c1ccc(-c2nc3ccccc3[nH]2)cc1,broth dilution,ATCC 10231,MIC,6.25 µg/mL
Cc1ccc(/C(=N\OCc2ccc(Cl)cc2)c2oc3ccccc3c2C)cc1,-,-,MIC,16 µg/mL
COc1ccc(C2NC(=O)Nc3n[nH]c(C(C)C)c32)cc1OC,agar diffusion,ATCC 10231,MIC,312.5 µg/mL
COC1=NC(C)CC(OC(=O)c2ccc3c(c2)OCO3)=N1,-,-,MIC,>100 µg/mL
N=C(N)SCCN(CCSC(=N)N)CCSC(=N)N,-,ATCC 18804,MIC,0.49 µg/mL
O=C(Nc1c(F)cccc1F)OCCCN1CCN(c2nc3ccccc3s2)CC1,-,CY1123,MIC,1.3 µg/mL
CC(C)C1=CC2CC3(C=O)[C@@H]4CC[C@@H](C)[C@H]4CC2(C(O)CC2CCCCC2)[C@]13C(=O)O,-,-,MIC,0.5 µg/mL
CC(C)(C)OC(=O)N1CCCC1c1nc(C(=O)O)cs1,-,7 isolates,MIC,443 µM
Cc1cc2ncn(-c3ccc(-c4nc5ccccc5[nH]4)cc3)c2cc1C,broth dilution,ATCC 10231,MIC,6.25 µg/mL
C[C@@H](SC1COC(/C=C/C=C/c2ccc(C#N)cc2F)OC1)[C@](O)(Cn1cncn1)c1ccc(F)cc1F,-,TIMM3165,MIC,0.063 µg/mL
Cc1ccc(/C=C2\COc3ccccc3C2=O)cc1,-,-,MIC,12.5 µg/mL
C[C@@H](SC1COC(/C=C/C=C/c2ccc(C#N)cc2)OC1)[C@](O)(Cn1cncn1)c1ccc(F)cc1F,-,TIMM3165,MIC,0.125–0.25 µg/mL
COc1ccc(/C=C2\CSc3ccc(Cl)cc3C2=O)cc1,-,-,MIC,25 µg/mL
O=C1N[C@@H](Cc2c[nH]c3ccccc23)C(=O)N2CCC[C@@H]12,broth dilution,MTCC 277,MIC100,8 µg/mL
CCCCCOc1ccc(-c2cc(-c3ccc(C(=O)N[C@H]4C[C@@H](O)[C@@H](O)NC(=O)[C@@H]5[C@@H](O)[C@@H](C)CN5C(=O)[C@H]([C@H](O)CC(N)=O)NC(=O)[C@H]([C@H](O)[C@@H](O)c5ccc(O)c(OS(=O)(=O)O)c5)NC(=O)[C@@H]5C[C@@H](O)CN5C(=O)[C@H]([C@@H](C)O)NC4=O)cc3)no2)cc1,-,90028,MIC,0.0625 µg/mL
CCOC(=O)c1csc(C2CCCN2)n1,-,7 isolates,MIC,404 µM
O=C1/C(=C/c2ccc(F)cc2)CCc2ccccc21,-,-,MIC,50 µg/mL
COc1cc(O)c2c(c1)C(=O)c1c(cc3c(c1O)-c1c(cc(C)c(C(=O)NCC(=O)O)c1O)[C@H](O[C@@H]1O[C@H](C)[C@H](N)[C@H](O[C@@H]4OC[C@@H](O)[C@H](O)[C@H]4O)[C@H]1O)[C@H]3O)C2=O,-,A9540,MIC,6.3 µg/mL
Cc1c(/C(=N/OC(=O)c2ccccc2)c2ccc(Cl)cc2)oc2ccccc12,-,-,MIC,>512 µg/mL
COc1ccc2c(c1)C(=O)/C(=C/c1ccc3c(c1)OCO3)CO2,-,-,MIC,25 µg/mL
COc1cc(C=O)cc2c1[nH]c1ccccc12,-,-,MIC50,>50 µg/mL
OC(Cn1cncn1)(Cn1cncn1)c1ccc(F)cc1F,-,3028,MFC,>100 µg/mL
CN=C(NC)SCCN(CCSC(=NC)NC)CCN(CCSC(=NC)NC)CCSC(=NC)NC,-,ATCC 18804,MIC,125 µg/mL
C[C@@H]1Oc2ccccc2/C(=N/OCc2ccc(Cl)cc2Cl)[C@H]1[n+]1cnc[nH]1,-,ATCC 10231,MFC,>64 µg/mL
CSc1nccn1C,-,-,MIC,>200 µg/mL
CC(C)C1=CC2CC3(C=O)[C@@H]4CC[C@@H](C)[C@H]4CC2(C(O)CCC2CCCCC2)[C@]13C(=O)O,-,-,MIC,0.5 µg/mL
Cn1ccnc1S(C)=O,-,-,MIC,>200 µg/mL
C[C@@H]1Oc2ccccc2/C(=N/OCc2ccc(Cl)cc2Cl)[C@H]1n1ccnc1,-,ATCC 10231,MIC,16 µg/mL
COc1ccc(/C(=N\OCc2ccc(Cl)cc2)c2oc3ccccc3c2C)cc1,-,-,MIC,128 µg/mL
CCCCOC1Oc2ccc(C(Cn3ccnc3)OCc3ccc(Cl)cc3)cc2N(C)C1=O,-,CA6,MIC,125 µg/mL
Nc1[nH]c(=O)ncc1F,-,2659,MIC,0.13 µg/mL
CC(C)CCCCC(O)C12C[C@@H]3[C@H](C)CC[C@H]3C3(C=O)CC1C=C(C(C)C)[C@@]23C(=O)O,-,-,MIC,0.5 µg/mL
COc1cc(O)c2c(c1)C(=O)c1c(cc3c(c1O)-c1c(cc(C)c(C(=O)NC(C)C(=O)O)c1O)[C@H](OC1OC(C)C(N(C)C(=O)CCC(=O)O)C(OC4OCC(O)C(O)C4O)C1O)[C@H]3O)C2=O,-,A9540,MIC,>100 µg/mL
O=C(O)c1ccc2c(c1)ncn2-c1ccc(-c2nc3ccccc3[nH]2)cc1,broth dilution,ATCC 10231,MIC,12.5 µg/mL
CC(C)CC(NC(=O)OC(C)(C)C)c1nc(C(=O)NN)cs1,-,7 isolates,MIC,>3000 µM
Cc1c(O)cccc1C(=O)N[C@@H](CSc1ccccc1)[C@H](O)CN1C[C@H]2CCCC[C@H]2C[C@H]1C(=O)NC(C)(C)C,-,I119C,MIC,>64 µg/mL
CCCCOC1Sc2ccc(C(Cn3ccnc3)OCc3ccc(Cl)cc3)cc2N(C)C1=O,-,CA6,MIC,1.8–3.9 µg/mL
N#Cc1ccc2c(c1)ncn2-c1ccc(-c2nc3ccccc3[nH]2)cc1,broth dilution,ATCC 10231,MIC,6.25 µg/mL
O=Cc1ccc2[nH]c3ccccc3c2c1,-,-,MIC50,13.6 µg/mL
Clc1ccc2c(c1)ncn2-c1ccc(-c2nc3ccccc3[nH]2)cc1,broth dilution,ATCC 10231,MIC,6.25 µg/mL
C[C@@H]1Oc2ccccc2/C(=N/OCc2ccccc2F)[C@H]1n1ccnc1,-,ATCC 10231,MIC,16 µg/mL
COC(=O)c1ccc2[nH]c3ccccc3c2c1,-,-,MIC50,9.5 µg/mL
COc1ccc(/C=C2\CSc3ccc(Cl)cc3C2=O)cc1OC,-,-,MIC,50 µg/mL
Cn1c([N+](=O)[O-])cnc1N,-,-,MIC,>200 µg/mL
C=CC(C)(C)c1c2c(c(O)c3ccc(=O)oc13)C(=O)CC(C)(C)O2,-,-,MIC50,>50 µg/mL
C[C@@H]1Oc2cc(Cl)ccc2/C(=N/OCc2ccc(Cl)cc2Cl)[C@H]1n1ccnc1,-,ATCC 10231,MFC,>64 µg/mL

A second listing of 7 rows from above:

compound | method | strain | read-out | result
C[C@@H](SC1COC(/C=C/C=C/c2ccc(C#N)cc2F)OC1)[C@](O)(Cn1cncn1)c1ccc(F)cc1F | - | TIMM3165 | MIC | 0.063 µg/mL
CC(=O)O/N=C(\c1ccccc1)c1oc2ccccc2c1C | - | - | MIC | 8 µg/mL
C[C@@H]1Oc2ccccc2/C(=N/OCc2ccc(Cl)cc2Cl)[C@H]1[n+]1cnc[nH]1 | - | ATCC 10231 | MFC | >64 µg/mL
C=CC(C)(C)c1c2c(c(OC)c3ccc(=O)oc13)C=CC(C)(C)O2 | - | - | MIC50 | >50 µg/mL
COC1=NC(C)CC(OC(=O)c2ccc3c(c2)OCO3)=N1 | - | - | MIC | >100 µg/mL
CCOC(=O)c1csc(C(C)NC(=O)OC(C)(C)C)n1 | - | 7 isolates | MIC | 420 µM
C[C@@H](SC1COC(/C=C/C=C/c2ccc(C#N)cc2)OC1)[C@](O)(Cn1cncn1)c1ccc(F)cc1F | - | TIMM3165 | MIC | 0.125–0.25 µg/mL